Reference: patent US20110150771A1

Target: E protein of wild type Dengue-2 virus 16681 (Dengue virus type 2, strain 16681) (UniProt P29990)
Assay: cell-based or functional assay
Conditions: scale: greatest antibody dilution that decreased plaques by at least 50%

| Substance | PRNT50 Titer |
| --- | --- |
| DENV-2 E protein-specific monoclonal antibody (MAb3H5) | > 2560 |
| WNV E protein-specific monoclonal antibody (MAb3.67G) | < 1280 |
